The numbers were not newly measured in article PMC11394807, which cites them from elsewhere.

This data set deals with Spike protein (SARS-CoV-2) (UniProt P0DTC2).

As a reminder, the Kd is the constant that tells how readily two partners part at equilibrium. As for CD4 (from UniProt P01730), the Kd was 27 nM.
